Here are results for 16 molecules from patent US20070072177A1 (CRUCELL HOLLAND B V, published 2007).

Experiment [1] has as its target 5% FBS preparation. Description: phage ELISA on coated 5% FBS, anti-M13-HRP. On the technique in general: In an ELISA, binding on a coated surface is turned into a signal by an enzyme label.
In experiment [2] the target is T1, glycoprotein of rabies virus strain CVS-11 (rabies virus strain CVS-11, UniProt O92284 20-524).
T1 sequence: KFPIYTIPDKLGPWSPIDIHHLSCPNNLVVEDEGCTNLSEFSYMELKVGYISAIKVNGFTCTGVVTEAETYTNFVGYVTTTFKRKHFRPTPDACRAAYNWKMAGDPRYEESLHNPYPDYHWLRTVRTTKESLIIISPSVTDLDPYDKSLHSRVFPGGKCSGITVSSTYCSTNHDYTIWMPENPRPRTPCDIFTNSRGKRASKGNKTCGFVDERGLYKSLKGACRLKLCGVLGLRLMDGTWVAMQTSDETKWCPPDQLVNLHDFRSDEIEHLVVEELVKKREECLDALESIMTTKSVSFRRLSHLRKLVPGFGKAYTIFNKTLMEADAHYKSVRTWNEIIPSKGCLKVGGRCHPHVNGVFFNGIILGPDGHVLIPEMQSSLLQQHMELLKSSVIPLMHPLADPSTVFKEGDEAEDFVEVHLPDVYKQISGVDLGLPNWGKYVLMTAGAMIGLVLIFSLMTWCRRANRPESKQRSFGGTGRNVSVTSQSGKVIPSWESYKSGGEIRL
Description: cell-based or functional assay.

The target in experiment [3] is T2, rabies virus glycoprotein (G protein) of strain CVS-11 (rabies virus strain CVS-11, UniProt O92284 20-524).
T2 sequence: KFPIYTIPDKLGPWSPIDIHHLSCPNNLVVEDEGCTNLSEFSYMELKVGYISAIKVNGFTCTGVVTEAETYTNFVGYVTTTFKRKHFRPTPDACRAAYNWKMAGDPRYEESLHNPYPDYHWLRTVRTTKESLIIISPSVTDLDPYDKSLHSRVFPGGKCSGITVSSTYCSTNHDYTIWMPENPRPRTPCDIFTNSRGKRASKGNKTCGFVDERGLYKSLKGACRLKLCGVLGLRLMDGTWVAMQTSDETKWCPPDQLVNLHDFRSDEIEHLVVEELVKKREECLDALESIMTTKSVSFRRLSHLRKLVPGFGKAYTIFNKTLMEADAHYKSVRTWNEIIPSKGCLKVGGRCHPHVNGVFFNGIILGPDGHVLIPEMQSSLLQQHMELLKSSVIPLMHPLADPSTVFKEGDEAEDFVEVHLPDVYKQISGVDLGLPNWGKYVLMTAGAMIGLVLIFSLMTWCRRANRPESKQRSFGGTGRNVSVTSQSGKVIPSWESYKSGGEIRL
Description: cell-based or functional assay.

B1: SC04-125 (scFv)
scFv: AMAQVQLVESGGGVVQPGRSLRLSCAASGFTFSSYGMHWVRQAPGKGLEWVAVISYDGSDKYYADSVKGRFTISRDNSKNTLYLQMNSLRAEDTAVYYCAKIATAGTGFDYWGQGTLVTVSSGTGGSGGTGSGTGGSTDIQMTQSPSSVSASVGDRVTITCRASQGISSYLAWYQQKPGKAPKLLIYDASSLESGVPSRFSGSGSGTEFTLTISSLQPDDFATYYCQQLNSYPLTFGGGTKVEIKRAAA
Consider B1, for which the “OD 492 nm” value in experiment [1] was 0.049 OD 492 nm. In experiment [2], the 50% endpoint dilution turned out to be 405 dilution.

B2: SC04-040 (scFv)
scFv: AMAQVQLVQSGGGVVQPGRSLRLSCAASGFTFGSYGMHWVRQAPGKGLEWVATIFYDGSYKDYADSVKGRFTISRDNSKNTLYLQMNSLRAEDTAVYYCAKGSKVGDFDYWGQGTLVTVSSGTGGSGGTGSGTGGSTQPVLTQPPSVSVAPGQTARISCGGDNIGTNTVQWYQQKPGQAPVLVVYDDSDRPSGIPERFSGSNSGDTATLTISRVEAGDEADYYCQVWDDSSDLVVFGGGTKVTVLGAAA
On to B2, for which the “OD 492 nm” value in experiment [1] was determined as 0.053 OD 492 nm. Moreover, the 50% endpoint dilution in experiment [2] is 45 dilution.

B3: SC04-120 (scFv)
scFv: AMAEVQLVQSGGGLVQPGRSLRLSCAASGFTFSTYGMHWVRQAPGKGLEWVATISYDGSIKDYADSEKGRFTISRDNSKNTLYLQMNSLRAEDTAVYYCAKGGKTGEFDYWGQGTLVTVSSGTGGSGGTGSGTGGSTDIQLTQSPSTLSASVGDRVTITCRASQGINSYLAWYQQEPGKAPKLLIYAASTLQSGVPSRFSGSGSGTEFTLTISSLQPEDFATYYCQQLNSYPFTFGPGTKVDIKRAAA
For the molecule B3, in experiment [1], the “OD 492 nm” value was found to be 0.052 OD 492 nm. Besides, the 50% endpoint dilution in experiment [2] was 810 dilution.

B4: SC04-140 (scFv)
scFv: AMAQMQLVQSGGGVVQPGRSLRLSCAASGFTFSSYGMHWVRQAPGKGLEWVAVILYDGSNKYYADSVKGRFTISRDNSKNALYLQMNSLRAEDTAVYYCAKVTNPGDAFDIWGQGTMVTVSSGTGGSGGTGSGTGGSTDIQMTQSPSSLSASVGDRVTITCRASQGISSALAWYQQKPGKAPKLLIYDASSLESGVPSRFSGSGSGTDFTLTISSLQPEDFATYYCQQFNSYPLTFGGGTKVEIKRAAA
On to B4, for which the “OD 492 nm” value in experiment [1] was 0.057 OD 492 nm. The molecule also returned a 50% endpoint dilution in experiment [2] of 135 dilution.

B5: SC04-103 (scFv)
scFv: AMAQVQLQESGGGVVQPGRSLRLSCAASGFTFSSYGMHWVRQAPGKGLEWVAVILYDGSDKYYADSVKGRFTISRDNSKNTLYLQMNSLRAEDTAVYYCAKVAVAGESFDSWGRGTLVTVSSGTGGSGGTGSGTGGSTDIQLTQSPSSVSASVGDRVTITCRASQGISSWLAWYQQKPGKAPRSLIYDASSLQSGVPSRFSGSGSGTDFTLTISSLQPEDFATYYCQQADSFPITFGQGTRLEIKRAAA
On to B5, for which the “OD 492 nm” value in experiment [1] amounted to 0.059 OD 492 nm. Moreover, the 50% endpoint dilution in experiment [2] is 45 dilution.

B6: SC04-126 (scFv)
scFv: AMAQVTLKESGPTLVNPTQTLTLTCTFSGFSLSTGGVGVGWFRQPPGKALEWLARIDWDDDKYYSTSLKTRLTISKDTSKIQVVLTMTNMDPVDTATYYCARMGFTGTYFDYWGQGTLVTVSSGTGGSGGTGSGTGGSTQSVLTQPPSVSVAPGKTARITCGGNNIGSKSVHWYQQKPGQAPVLVIYYDSDRPSGIPERFSGSNSGNTATLTISRVEAGDEADYYCQVWDSSSDHPYVFGTGTKLTVLGAAA
As to B6, the “OD 492 nm” value in experiment [1] is 0.051 OD 492 nm. This molecule yielded a 50% endpoint dilution in experiment [2] of 10 dilution.

B7: SC04-097 (scFv)
scFv: AMAEVQLVQSGGHLVQPGGSLRLSCAASGFTFSSYAMSWVRQAPGKGLEWVSLIIGSGRSTYYADSVKGRFTISRDNSKNTLYLQMNSLRAEDTAVYYCAKTASNLGRGGMDVWGQGTTVTVSSGTGGSGGTGSGTGGSTDIQLTQSPSSLSASVGDRVTITCRASQGISSHLAWYQQKPGKAPKLLIYAASSLQSGVPSRFSGSGSGTEFTLTISSLQPEDFATYYCQQFNSYPITFGQGTRLEIKRAAA
Take B7: the “OD 492 nm” value in experiment [1] came out at 0.056 OD 492 nm. In experiment [2], this molecule gave a 50% endpoint dilution of 30 dilution.

B8: SC04-098 (scFv)
scFv: AMAEVQLVQSGGGAVQPGRSLRLSCAASGFTFSSYGMHWVRQAPGKGLEWVAVILYDGSDKFYADSVKGRFTISRDNSKNTLYLQMNSLRAEDTAVYYCAKVAVAGTHFDYWGQGTLVTVSSGTGGSGGTGSGTGGSTDIQMTQSPSSLSASVGDRVTITCRASQGIRNDLGWYQQKPGKAPKLLIYAASSLQSGVPSRFSGSGSGTDFTLTISSLQPEDFATYYCQQLNSYPPTFGGGTKVEIKRAAA
As to B8, the “OD 492 nm” value in experiment [1] was 0.06 OD 492 nm. The molecule also gave a 50% endpoint dilution in experiment [2] of 1220 dilution.

B9: SC04-146 (scFv)
scFv: AMAEVQLVQSGGGVVQPGRSLRLSCAASGFTFSSYGMHWVRQAPGKGLEWVATISYDGSIKDYADSEEGRFTISRDNSKNTLYLQMNSLRAEDTAVYYCAKGGKTGEFDYWGQGTLVTVSSGTGGSGGTGSGTGGSTDVVMTQSPATLSVSPGESATLFCRASESVYSNLAWYQHKPGRAPRLLIYGASTRATGIPARFDGTGSGTDFTLTISSLQSEDFAVYYCQQYNDWPITFGQGTRLEIKRAAA
B9: the “OD 492 nm” value in experiment [1] was found to be 0.057 OD 492 nm. Moreover, the 50% endpoint dilution in experiment [2] was found to be 405 dilution.

B10: SC04-038 (scFv)
scFv: AMAQVQLVQSGGGVVQPGRSLRLSCAASGFTFSSYGMHWVRQAPGKGLEWVAVISYDGSSKYYADSVKGRFTISRDNSKNTLYLQMNSLRAEDTAVYYCAKGSVLGDAFDIWGQGTMVTVSSGTGGSGGTGSGTGGSTDIQLTQSPSSVSASVGDRVTITCRASQGISGWLAWYQQKPEKAPKLLIYAASSLQRGVPSRFSGSGSGTDFTLTISSLQPEDFATYYCQQANSFPPTFGQGTRLEIKRAAA
With B10, the “OD 492 nm” value in experiment [1] is 0.061 OD 492 nm. Also, in experiment [2], the 50% endpoint dilution stood at 270 dilution.

B11: SC04-073 (scFv)
scFv: AMAQVQLVQSGGGVAQPGRSLRLSCAASGFTFSSYGMHWVRQAPGKGLEWVADISYDGSNKYYADSVKGRFTISRDNSKNTLYLQMNSLRAEDTAVYYCAKDGLDLTGTIQPFGYWGQGTLVTVSSGTGGSGGTGSGTGGSTDIQLTQSPSFLSASVGDRVTITCRASHSISSWLAWYQQKPGKAPKLLIYKASSLESGVPSRFSGSGSGTDFTLTISSLQPEDFATYYCLQDYNYPRTFGQGTKLEIKRAAA
Regarding B11, the “OD 492 nm” value in experiment [1] was 0.054 OD 492 nm. In experiment [2], this molecule displayed a 50% endpoint dilution of 405 dilution.

B12: SC04-060 (scFv)
scFv: AMAQVQLVESGPGLVKASETLSLTCTVSDGSISSFYWSWIRQPPGKGLEWVGEIQDTGRTNYNPSLKSRVTISLDTSKNQFSLTLSSVTAADTAVYYCAREKEKYSDRSGYSYYYYYMDVWGKGTTVTVSSGTGGSGGTGSGTGGSTDIQMTQSPSSLSASVGDRVTITCRASQGISTYLNWYQQKPGKAPNLLIYGASNLQSGVPSRFSGSESGTDFTLTISSLQPEDFATYYCQQSFTTPRTFGQGTKLEIKRAAA
As for B12, the “OD 492 nm” value in experiment [1] stood at 0.056 OD 492 nm. In experiment [2], this molecule had a 50% endpoint dilution of 30 dilution.

B13: SC04-104 (scFv)
scFv: AMAQVQLQESGGGVVQPGRSLRLSCAASGFTFSSYGMHWVRQAPGKGLEWVATISYDGNVKDYADSVKGRFTISRDNSKNTLYLQMNSLRTEDTAVYYCAKIVVVTALDAFDIWGQGTMVTVSSGTGGSGGTGSGTGGSTDIQLTQSPSTLSASVGDRVTITCRASQILGHWLPLSWYQQKPGKAPKLLISKASSLESGVPPRFSGSGSGSDFTLTISSLQPDDFATYYCLQYHEYPLTFGGGTKLEIKRAAA
With B13, the “OD 492 nm” value in experiment [1] was 0.063 OD 492 nm. Moreover, the 50% endpoint dilution in experiment [2] amounted to 135 dilution.

B14: CR04-098 (antibody, V domains shown)
VH: QVQLVESGGGAVQPGRSLRLSCAASGFTFSSYGMHWVRQAPGKGLEWVAVILYDGSDKFYADSVKGRFTISRDNSKNTLYLQMNSLRAEDTAVYYCAKVAVAGTHFDYWGQGTLVTVSS
VL: DIQMTQSPSSLSASVGDRVTITCRASQGIRNDLGWYQQKPGKAPKLLIYAASSLQSGVPSRFSGSGSGTDFTLTISSLQPEDFATYYCQQLNSYPPTFGGGTKVEIKT
Consider B14, for which the “Neutralizing potency (modified RFFIT)” value in experiment [3] is 7320 IU/mg.

B15: SC04-108 (scFv)
scFv: AMAEVQLVQSGGGLVQPGGSLRLSCAASGFTFSSYGMHWVRQAPGKGLEWVAVILYDGSDKFYADSVKGRFTISRDNSKDTLYLQMNSLRAEDTAVYYCAKFMIVADDAFDIWGQGTMVTVSSGTGGSGGTGSGTGGSTDIQLTQSPSSLSASVGDRVTITCRASQGISSHLVWYQQKPGKAPKSLIYAASSLQSGVPSRFSGSESATDFTLTISSLQPEDFATYYCQQYYSYPITFGQGTRLEIKRAAA
In the case of B15, the “OD 492 nm” value in experiment [1] is 0.052 OD 492 nm. For the same molecule, the 50% endpoint dilution in experiment [2] was 135 dilution.

B16: SC04-144 (scFv)
scFv: AMAQVQLQELGGGVVQPGRSLRLSCAASGFTFGSYGMHWVRQAPGKGLEWVATISYDGSIKDYADSEKGRFTISRDNSKNTLYLQMNSLRAEDTAVYYCAKGGKTGEFDYWGQGTLVTVSSGTGGSGGTGSGTGGSTDIQLTQSPSSLSASVGDRVTITCRASQGISSYLAWYQQKPGKGPKLLIYAASTLQSGVPSRFSGSGSGTDFSLTISSLQPEDLATYYCQQYDSYPLTFGGGTKVEIKRAAA
B16: the “OD 492 nm” value in experiment [1] amounted to 0.054 OD 492 nm. In experiment [2], this molecule came in with a 50% endpoint dilution of 810 dilution.
